Anti-infective test results gathered from many reports (values: NIAID ChemDB through PubChem).

Common to all: whole-cell or culture tests; agent: Cryptococcus neoformans; read-out: MIC

Neighbouring rows are from separate reports.

{"smiles": "Cn1c([N+](=O)[O-])cnc1N", "value": ">200 µg/mL"}
{"smiles": "OC(c1cc(-c2ccccc2)nc2c(Cl)cc(Cl)cc12)C1CCCCN1", "strain or isolate": "ATCC90112", "value": "1.5 µg/mL"}
{"smiles": "CCCCCCCCC[C@@H]1CC(=O)NCC(=O)N[C@@H](CCCCN)C(=O)N[C@@H](CC(C)C)C(=O)N1", "value": "4 µg/mL"}
{"smiles": "CN[C@@H]1[C@H](O[C@@H]2OC[C@@H](O)[C@H](O)[C@H]2O)[C@@H](O)[C@H](O[C@H]2c3cc(C)c(C(=O)NCC(=O)O)c(O)c3-c3c(cc4c(c3O)C(=O)c3cc(OC)cc(O)c3C4=O)[C@@H]2O)O[C@@H]1CO", "strain or isolate": "D49", "value": "1.6 µg/mL"}
{"smiles": "COc1cc2ccnc3c2c(c1OC(=O)c1ccc(C)cc1)N(C)C=C3", "value": "20 µg/mL"}
{"smiles": "COc1cc(NS(=O)(=O)c2ccc(N)cc2)ncn1", "strain or isolate": "IFM 40215", "value": "≥256 µg/mL"}
{"smiles": "CCc1ccc(C(=O)Oc2c(OC)cc3ccnc4c3c2N(C)C=C4)cc1", "value": "10 µg/mL"}
{"smiles": "CCCCCCCCCCC[C@H]1NC(=O)[C@H](CC(C)(C)C)NC(=O)[C@H](CCCCN)NC(=O)CNC(=O)[C@@H]1C", "value": "8 µg/mL"}
{"smiles": "CCn1c2c(c3ccccc31)C(=O)c1nccc(C)c1C2=O", "value": ">200 µg/mL"}
{"smiles": "OC(Cn1cncn1)(Cn1cncn1)c1ccc(F)cc1F", "strain or isolate": "TIMM0362", "value": "50 µg/mL"}
{"smiles": "COc1cc2ccnc3c2c(c1OC(=O)c1ccccc1C)N(C)C=C3", "value": "20 µg/mL"}
{"smiles": "CNC1C(C)OC(O[C@H]2c3cc(C)c(C(=O)NC(C)C(=O)O)c(OC)c3-c3c(cc4c(c3O)Cc3cc(OC)cc(O)c3C4=O)[C@@H]2O)C(O)C1OC1OCC(O)C(O)C1O", "strain or isolate": "IAM 4514", "value": ">100 µg/mL"}
{"smiles": "Cc1cc(NC(=O)c2ccc(NC(=O)COc3ccccc3)cc2)no1", "strain or isolate": "ATCC90112", "value": ">100 µg/mL"}
{"smiles": "C[C@@H](n1cnc2cc(Cl)ccc2c1=O)[C@](O)(Cn1cncn1)c1ccc(F)cc1F", "strain or isolate": "3 strains", "value": "0.01 µg/mL"}
{"smiles": "COc1ccc(/C=C2\\CCc3ccccc3C2=O)cc1OC", "strain or isolate": "93/V", "value": "6 µg/mL"}
{"smiles": "CSc1cc(-c2ccc(-c3cccnc3)cc2)c(C(=O)O)s1", "strain or isolate": "CN-17", "value": ">100 µg/mL"}
{"smiles": "CCCCCCCCCCCCCC#CC1=N[C@H]1C(=O)OC", "strain or isolate": "var. gatti", "value": "4 µg/mL"}
{"smiles": "COc1cc(O)c2c(c1)C(=O)c1c(cc3c(c1O)-c1c(cc(C)c(C(=O)N[C@H](CO)C(=O)O)c1O)[C@H](OC1OC(C)C(N)C(OC4OCC(O)C(O)C4O)C1O)[C@H]3O)C2=O", "strain or isolate": "D49", "value": "0.8 µg/mL"}
{"smiles": "O=C1/C(=C/c2ccc3c(c2)OCO3)CSc2ccccc21", "strain or isolate": "25", "value": "1.5 µg/mL"}
{"smiles": "CCCCCCCCCCCCC(OC)C(=O)O", "strain or isolate": "ATCC66031", "value": "110 µM"}
{"smiles": "CCOC(=O)c1sc2cc(-c3ccc(Br)cc3)oc(=O)c2c1N", "strain or isolate": "CN-17", "value": ">100 µg/mL"}
{"smiles": "COc1c(O)c2c(=O)cc(OC)c3c4c(OC)cc(=O)c5c(O)c(OC)c6c(c(c1CC(C)=C6OC(C)=O)c23)c54", "value": ">100 µg/mL"}
{"smiles": "Nc1ccc(CC(c2cccs2)n2ccnc2)cc1", "value": "300 µM"}
{"smiles": "Cn1ccnc1S(C)(=O)=O", "value": ">200 µg/mL"}
{"smiles": "CCC(C)CC(C)CCCCCCCCC(=O)N[C@H]1C[C@@H](O)[C@H](NCCN)NC(=O)[C@@H]2[C@@H](O)CCN2C(=O)[C@H]([C@H](O)CCN)NC(=O)[C@H]([C@H](O)[C@@H](O)c2ccc(O)cc2)NC(=O)[C@@H]2C[C@@H](O)CN2C(=O)[C@H]([C@@H](C)O)NC1=O", "strain or isolate": "Isolate 34 (AMB FCZ 5FC-susceptible)", "value": "16 µg/mL"}
{"smiles": "Cc1cc(NC(=O)c2cccc(NC(=O)COc3ccccc3C)c2)no1", "strain or isolate": "ATCC90112", "value": ">100 µg/mL"}
{"smiles": "Cc1cc(-c2nn(CCO)c(C)c2N=O)no1", "value": "22 µM"}
{"smiles": "CCOC(=O)c1sc(SC)cc1-c1ccc(-c2cccnc2)cc1", "strain or isolate": "CN-17", "value": "50 µg/mL"}
{"smiles": "COc1cc(/C=C2\\CSc3ccccc3C2=O)ccc1O", "strain or isolate": "25", "value": "25 µg/mL"}
{"smiles": "Cn1cc[nH]c1=S", "value": ">200 µg/mL"}
{"smiles": "C/C=C/C=C(/C)C(=O)O[C@H]1[C@H](O)[C@H](OCC23C4C=C(C(C)C)C2(C(=O)O)C(C=O)(C4)[C@@H]2CC[C@@H](C)[C@H]23)O[C@H](C)[C@H]1OC", "strain or isolate": "2867E", "value": "1 µg/mL"}
{"smiles": "COc1ccc(/C=C2\\CSc3ccccc3C2=O)cc1", "strain or isolate": "93/V", "value": "6 µg/mL"}
{"smiles": "Clc1ccc(C(COc2ccc(Cl)cc2Cl)Cn2ccnc2)cc1", "value": "<1 µg/mL"}
{"smiles": "COc1ccc(/C=C2\\CS(=O)(=O)c3ccccc3C2=O)cc1", "strain or isolate": "Farwania", "value": "25 µg/mL"}
{"smiles": "Clc1ccc(C(CCOc2ccccc2Cl)Cn2ccnc2)c(Cl)c1", "value": "<1 µg/mL"}
{"smiles": "Cc1noc(NS(=O)(=O)c2ccc(N)cc2)c1C", "strain or isolate": "IFM 40216", "value": "64 µg/mL"}
{"smiles": "CCCCC[C@@H]1OCO[C@@]2(C)/C=C(C)/C=C/C(=O)O[C@H]([C@@H](C)[C@@H](O)[C@H](C)[C@@]3(O)C[C@@H](O[C@H]4C[C@@H](O)[C@H](O)[C@@H](C)O4)[C@H](C)[C@@H](C)O3)[C@@H](OC)/C=C/C=C(\\C)C[C@H]1[C@@H]2O", "strain or isolate": "F-10", "value": "0.39 µg/mL"}
{"smiles": "CCCCCCCCCCCCC(C)(O)C1CC(=O)NC(CO)C(=O)N[C@H](C)C(=O)NC(CC(=O)O)C(=O)NC(CC(N)=O)C(=O)NC(CC(N)=O)C(=O)NC(CO)C(=O)NC([C@@H](C)O)C(=O)O1", "strain or isolate": "ATCC90112", "value": "32 µg/mL"}
{"smiles": "N=C(N)c1ccc(OC/C=C/COc2ccc(C(=N)N)cc2)cc1", "strain or isolate": "ATCC 32264", "value": "3.12 µg/mL"}
{"smiles": "CCCCCCCC(=O)CCCCCC/C=C/C(C(=O)NC(Cc1ccc(OCC=C(C)C)cc1)C(=O)O)C(O)(CC(=O)O)C(=O)O", "strain or isolate": "TIMM0354", "value": "6.25 µg/mL"}
{"smiles": "O=C1/C(=C/c2ccc3ccccc3c2)CSc2ccc(Cl)cc21", "strain or isolate": "93/V", "value": "50 µg/mL"}
{"smiles": "C=C1C(=O)OCC1COC(=O)CCCC(C)C", "strain or isolate": "ATCC90112", "value": "12.5 µg/mL"}
{"smiles": "CCCCCc1ccc(C(=O)Oc2c(OC)cc3ccnc4c3c2N(C)C=C4)cc1", "value": "5 µg/mL"}
{"smiles": "Cc1cc(-c2cc(C)on2)n(CCO)n1", "value": ">200 µM"}
{"smiles": "CCOC(=O)c1sc2cc(-c3ccc(OC)cc3)oc(=O)c2c1N", "strain or isolate": "CN-17", "value": ">100 µg/mL"}
{"smiles": "C[C@H]1[C@H](O)C(=O)CC2[C@]3(C)CC[C@@]4(C)C5C[C@](C)(C(=O)O)CC[C@]5(C)CC[C@]4(C)C3CC[C@@]21C", "value": ">50 µg/mL"}
{"smiles": "CCn1nc(C)c(N)c1-c1cc(C)on1", "value": ">200 µM"}
{"smiles": "CCCCCCCCCOCC(OC)C(=O)O", "strain or isolate": "ATCC66031", "value": "80 µM"}
{"smiles": "COc1cc2nccc3c4ccccc4n(c1=O)c23", "value": "45.4 µM"}
{"smiles": "O=C1OC(O)(c2ccccc2O)c2cccc3cccc1c23", "value": "18.7 µM"}
{"smiles": "CCOc1ccc(/C=C2\\CCc3ccccc3C2=O)cc1", "strain or isolate": "25", "value": "12.5 µg/mL"}
{"smiles": "Nc1ccc(S(=O)(=O)Nc2ccnn2-c2ccccc2)cc1", "strain or isolate": "IFM 49722", "value": "8 µg/mL"}
{"smiles": "COc1ccc(/C=C2\\COc3ccc(OC)cc3C2=O)cc1", "strain or isolate": "25", "value": "6 µg/mL"}
{"smiles": "OC(c1cc(-c2ccc(Cl)cc2)nc2c1ccc1ccccc12)C1CCCCN1", "strain or isolate": "ATCC90112", "value": "0.8 µg/mL"}
{"smiles": "CCn1nc(C)c(N=O)c1-c1cc(C)on1", "value": "0.1 µM"}
{"smiles": "Cc1cc(NC(=O)c2ccc(NC(=O)COc3ccccc3C)cc2)no1", "strain or isolate": "ATCC90112", "value": ">100 µg/mL"}
{"smiles": "Clc1ccc(C(COc2ccccc2Cl)Cn2ccnc2)c(Cl)c1", "value": "<1 µg/mL"}
{"smiles": "Cc1cc2c(c(O)c1C(=O)NCC(=O)O)-c1c(cc3c(c1O)C(=O)c1cc(OCC(=O)O)cc(O)c1C3=O)[C@H](O)[C@H]2O[C@@H]1O[C@H](C)[C@H](O)[C@H](O[C@@H]2OC[C@@H](O)[C@H](O)[C@H]2O)[C@H]1O", "strain or isolate": "IAM 4514", "value": "100 µg/mL"}
{"smiles": "CCCCCCCC(O)CC(=O)CCc1ccc(O)c(OC)c1", "value": "750 µg/mL"}
{"smiles": "Cc1cc(-c2n[nH]c(C)c2N=O)no1", "value": "30 µM"}
{"smiles": "Cn1ccc(C(Cc2ccc(Cl)cc2Cl)n2ccnc2)c1", "value": "37.5 µM"}
{"smiles": "Cc1ccc(OCC(=O)Nc2ccccc2C(=O)Nc2cc(C)on2)cc1", "strain or isolate": "ATCC90112", "value": ">100 µg/mL"}
{"smiles": "Cn1c([N+](=O)[O-])cnc1S(C)=O", "value": ">200 µg/mL"}
{"smiles": "CCC(C)CC(C)CCCCCCCCC(=O)NC1C[C@H](O)[C@@H](O)NC(=O)[C@@H]2[C@@H](O)[C@@H](C)CN2C(=O)[C@H]([C@H](O)CC(N)=O)NC(=O)[C@H](C(O)[C@H](O)c2ccc(O)cc2)NC(=O)[C@@H]2C[C@@H](O)CN2C(=O)[C@H]([C@@H](C)O)NC1=O", "strain or isolate": "MY1051", "value": ">128 µg/mL"}
{"smiles": "N=C(N)c1ccc(OC/C=C\\COc2ccc(C(=N)N)cc2)cc1", "strain or isolate": "ATCC 32264", "value": "3.12 µg/mL"}
{"smiles": "CCCCCCCCC[C@@H]1CC(=O)NCC(=O)N[C@@H](CCCCN)C(=O)N[C@@H](CC(C)(C)C)C(=O)N1", "value": "8 µg/mL"}
{"smiles": "CN[C@@H]1[C@H](O[C@@H]2OC[C@@H](O)[C@H](O)[C@H]2O)[C@@H](O)[C@H](O[C@H]2c3cc(C)c(C(=O)N[C@H](C)C(=O)O)c(O)c3-c3c(cc4c(c3O)C(=O)c3cc(OC)c(C(=O)O)c(O)c3C4=O)[C@@H]2O)O[C@@H]1C", "strain or isolate": "IAM 4514", "value": ">100 µg/mL"}
{"smiles": "CCCCCCCCCCCCCCCCCC(=O)NC1CC(O)C(O)NC(=O)C2C(O)C(C)CN2C(=O)C(C(C)O)NC(=O)C(C(O)C(O)c2ccc(O)cc2)NC(=O)C2CC(O)CN2C(=O)C(C(C)O)NC1=O", "strain or isolate": "MY1146", "value": ">128 µg/mL"}
{"smiles": "CCCCCCCCC[C@H]1NC(=O)[C@H](CC(C)(C)C)NC(=O)[C@H](CCCN)NC(=O)CNC(=O)C1(F)F", "value": "8 µg/mL"}
{"smiles": "Clc1ccc(CC(c2ccc(Cl)s2)n2ccnc2)c(Cl)c1", "value": "1.2 µM"}
{"smiles": "COc1cc(NS(=O)(=O)c2ccc(N)cc2)nc(OC)n1", "strain or isolate": "IFM 49722", "value": "≥256 µg/mL"}
{"smiles": "CC(C)CCCCCCCCCC1CC(=O)NCC(=O)N[C@@H](CCCCN)C(=O)N[C@@H](C(C)C)C(=O)N1", "strain or isolate": "TIMM0354", "value": "0.63 µg/mL"}
{"smiles": "CCOC(=O)c1sc2cc(-c3cc(F)c(Cl)cc3Cl)oc(=O)c2c1N", "strain or isolate": "CN-17", "value": ">100 µg/mL"}
{"smiles": "COc1cc(O)c2c(c1)C(=O)c1c(cc3c(c1O)-c1c(cc(C)c(C(=O)NC(CO)C(=O)O)c1O)[C@H](OC1OC(C)C(O)C(OC4OCC(O)C(O)C4O)C1O)C3O)C2=O", "strain or isolate": "D49", "value": "3.1 µg/mL"}
{"smiles": "Clc1ccc(CC(c2ccc(Cl)s2)n2ccnc2)cc1", "value": "1.2 µM"}
{"smiles": "CCOC(=O)c1sc(SC)c(C(=O)OC)c1O", "strain or isolate": "CN-17", "value": "12.5 µg/mL"}
{"smiles": "CCCn1nc(-c2cc(C)on2)c(N=O)c1C", "value": "2.4 µM"}
{"smiles": "Clc1ccc(OCC(Cn2ccnc2)c2ccc(Cl)cc2Cl)c(Cl)c1", "value": "<1 µg/mL"}
{"smiles": "CCCCCCCCCCCCC/C=C\\C1=N[C@H]1C(=O)OC", "strain or isolate": "var. grubii", "value": "2 µg/mL"}
{"smiles": "CC(C)=CCC1=C(O)c2ccccc2C(=O)C1=O", "value": "<0.09 µg/mL"}
{"smiles": "Clc1ccc(CC(c2cccs2)n2ccnc2)cc1", "value": "19 µM"}
{"smiles": "CCOC(=O)c1sc2cc(-c3ccc([N+](=O)[O-])cc3)oc(=O)c2c1N", "strain or isolate": "CN-17", "value": ">100 µg/mL"}

The last 7 rows once more:

CCOC(=O)c1sc(SC)c(C(=O)OC)c1O ; strain or isolate: CN-17 ; value: 12.5 µg/mL
CCCn1nc(-c2cc(C)on2)c(N=O)c1C ; value: 2.4 µM
Clc1ccc(OCC(Cn2ccnc2)c2ccc(Cl)cc2Cl)c(Cl)c1 ; value: <1 µg/mL
CCCCCCCCCCCCC/C=C\C1=N[C@H]1C(=O)OC ; strain or isolate: var. grubii ; value: 2 µg/mL
CC(C)=CCC1=C(O)c2ccccc2C(=O)C1=O ; value: <0.09 µg/mL
Clc1ccc(CC(c2cccs2)n2ccnc2)cc1 ; value: 19 µM
CCOC(=O)c1sc2cc(-c3ccc([N+](=O)[O-])cc3)oc(=O)c2c1N ; strain or isolate: CN-17 ; value: >100 µg/mL